Assay results as given in paper PMC9247205.
The exact form of at least one protein or probe is not confirmed. For some of these results: At least one verdict was read from the data and is not stated in words by the source.

Protein sequences, listed by entry. Tags and fused reporters are not part of them. Lines headed by an entry give the natural chain unless they say otherwise; changes in a name come on top.
UniProt C4M4V3: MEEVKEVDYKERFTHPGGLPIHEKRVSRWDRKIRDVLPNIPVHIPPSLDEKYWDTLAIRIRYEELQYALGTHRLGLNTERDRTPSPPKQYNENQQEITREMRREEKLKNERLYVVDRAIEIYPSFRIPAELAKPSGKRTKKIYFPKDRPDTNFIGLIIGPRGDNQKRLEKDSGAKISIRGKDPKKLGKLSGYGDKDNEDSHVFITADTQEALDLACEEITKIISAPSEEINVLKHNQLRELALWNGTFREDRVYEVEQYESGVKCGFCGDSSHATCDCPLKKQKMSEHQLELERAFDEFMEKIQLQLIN
UniProt C4LXB3: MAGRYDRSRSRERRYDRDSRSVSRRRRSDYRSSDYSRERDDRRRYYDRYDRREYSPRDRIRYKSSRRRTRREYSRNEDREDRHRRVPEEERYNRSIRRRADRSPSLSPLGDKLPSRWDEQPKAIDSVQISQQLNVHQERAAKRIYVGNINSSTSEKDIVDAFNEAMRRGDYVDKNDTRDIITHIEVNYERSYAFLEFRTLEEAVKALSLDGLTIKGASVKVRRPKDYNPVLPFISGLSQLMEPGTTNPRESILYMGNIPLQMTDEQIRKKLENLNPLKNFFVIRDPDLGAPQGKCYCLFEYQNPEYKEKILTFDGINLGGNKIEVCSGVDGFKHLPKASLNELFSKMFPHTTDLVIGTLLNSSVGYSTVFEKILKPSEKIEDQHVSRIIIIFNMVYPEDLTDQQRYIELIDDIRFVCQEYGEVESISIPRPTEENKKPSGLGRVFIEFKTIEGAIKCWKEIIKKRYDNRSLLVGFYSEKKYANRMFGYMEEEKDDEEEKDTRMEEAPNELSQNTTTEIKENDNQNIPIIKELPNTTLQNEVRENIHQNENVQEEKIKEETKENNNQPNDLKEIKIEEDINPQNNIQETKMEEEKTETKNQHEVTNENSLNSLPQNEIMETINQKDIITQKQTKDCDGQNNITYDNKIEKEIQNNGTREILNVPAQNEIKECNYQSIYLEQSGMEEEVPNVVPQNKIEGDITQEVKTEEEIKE

How the values were obtained:
[1] = biological target: GST-SF1KQ (EhSF1 KH-QUA2 domain) (Entamoeba histolytica) (UniProt C4M4V3); assay: EMSA; settings: EMSA: 50 ug protein (Fig 4), 200 fmol probe, 20 min (+10 min with U2 snRNA); binding buffer as in Ortuno-Pineda 2012, not given; recombinant protein; protein details: N-terminal GST (pGex 6p1); label: 5'-32P
[2] = tested on: GST-SF1KQ (EhSF1 KH-QUA2 domain) + His-84KQ (EhU2AF2 KH-QUA2 domain); assay: EMSA; settings: 1x U2 snRNA, 84KQ inhibits displacement of SF1KQ; EMSA: 50 ug protein (Fig 4), 200 fmol probe, 20 min (+10 min with U2 snRNA); binding buffer as in Ortuno-Pineda 2012, not given; recombinant protein; protein details: N-terminal GST (pGex 6p1),His6 (pET28a); label: 5'-32P
[3] = biological target: His-84KQ (EhU2AF2 KH-QUA2 domain) (Entamoeba histolytica) (UniProt C4LXB3); assay: UV crosslinking; settings: pH 4, better than Entamoeba BS; recombinant protein; protein details: His6 (pET28a); label: 5'-32P
[4] = tested on: GST-SF1KQ (EhSF1 KH-QUA2 domain) + His-84KQ (EhU2AF2 KH-QUA2 domain); assay: EMSA (supershift); settings: EMSA: 50 ug protein (Fig 4), 200 fmol probe, 20 min (+10 min with U2 snRNA); binding buffer as in Ortuno-Pineda 2012, not given; recombinant protein; protein details: N-terminal GST (pGex 6p1),His6 (pET28a); label: 5'-32P
[5] = biological target: GST-SF1KQ (EhSF1 KH-QUA2 domain) (Entamoeba histolytica) (UniProt C4M4V3); assay: UV crosslinking; settings: recombinant protein; protein details: N-terminal GST (pGex 6p1); label: 5'-32P

Measured: binding result

UAUACUAACAA [yeast canonical BS probe (C+)]
binds: [1] | [2] | [3]

AACUUUUAUUU [E. histolytica RabX13 intron BS probe (P+)]
not listed: [3]
binds: all other assays above
